A mixed list of measured activities; the numbers were collected in NIAID ChemDB.

Shared fields: growth or infection tests; organism: Hepatitis C virus; endpoint: EC50

Blank or dashed fields: not listed here. Neighbouring rows are from separate reports. ECn: concentration that inhibits the pathogen or its effect by n%. a–b is a range or a potency band.

SMILES | strain or isolate | method | setting | value
CC(C)N(C(=O)c1ccc(Cl)cc1F)c1cc(-c2ccccc2)sc1C(=O)O | 1a | replicon / ELISA |  | 1–5 µM
O=c1c(-c2noc(Cc3ccccc3)n2)cn(Cc2ccc(C(F)(F)F)cc2)c2cc(NCCOCCO)c(F)cc12 | 1b | replicon |  | <2 µM
NS(=O)(=O)c1ccc(CNc2nc(NCC(F)(F)F)c3nc(-c4ccc(F)c(S(=O)(=O)NC5CCNCC5)c4)ccc3n2)cc1 |  | replicon |  | <0.1 µM
CC1CCC(C(=O)N(c2cc(-c3ccc(NC(=O)c4ccncn4)cc3)sc2C(=O)O)C(C)C)CC1 | 1a | replicon |  | <0.5 µM
CS(=O)(=O)N(CCO)c1cccc(-c2ccc3nc(NCc4ccc(S(N)(=O)=O)cc4)nc(NCC(F)F)c3n2)c1 |  | replicon |  | <0.1 µM
CCCCCCCCOc1ccc(N(C(=O)CN(C)C)c2nc(-c3cccnc3)cs2)cc1C(F)(F)F |  |  |  | <1 µM
CCc1oc(C)nc1C(=O)N1c2cccc(O)c2NC2=C(C(=O)CC(C)(C)C2)C1c1ccc(OCc2ccccc2)cc1F | 1b | luciferase / reporter gene / replicon |  | 2.91 µM
CC(C)COc1ccc(N(C(N)=O)c2nc(-c3ccc(F)c(F)c3)cs2)cc1C(F)(F)F |  |  |  | <1 µM
CC1(C)CC(=O)C2=C(C1)Nc1c(O)cccc1NC2c1[nH]c(-c2ccccc2)nc1Cl | 1b | luciferase / reporter gene / replicon |  | 34.72 µM
CC(C)N(C(=O)c1ccc(Cl)cc1F)c1cc(-c2ccc(-c3cc4ncccn4n3)cc2)sc1C(=O)O | 1b | luciferase / replicon |  | 0.01–0.05 µM
CCCCCOc1ccc(N(C(C)=O)c2nc(-c3ccc(F)cc3)cs2)cc1C(F)(F)F |  |  |  | <1 µM
CN1CCN(c2cc3c(cc2F)c(=O)c(-c2noc(C(CC(=O)O)c4ccccc4)n2)cn3Cc2ccc(Cl)cc2)CC1 | 1b | replicon |  | >10 µM
CCCCCOc1ccc(N(C(=O)CN(C)C)c2nc(-c3cccnc3)cs2)cc1C(F)(F)F |  |  |  | <1 µM
Cc1cc(C(=O)Nc2ccc(-c3cc(N(C(=O)C4CCC(C)CC4)C(C)C)c(C(=O)O)s3)cc2)on1 | 1a | replicon |  | <0.5 µM
CS(=O)(=O)NC(=O)c1c(-c2ccc[nH]c2=O)c2c3occc3ccc2n1Cc1cc2ccccc2nc1Cl |  | replicon |  | <0.5 µM
CC(C)C(=O)N1c2cccc(O)c2NC2=C(C(=O)CC(C)(C)C2)[C@H]1c1ccc(OCc2ccccc2)cc1Cl | 1b | luciferase / reporter gene / replicon |  | 2.48 µM
O=C(NS(=O)(=O)C1CC1)c1c(-c2ccc[nH]c2=O)c2c3ncsc3ccc2n1Cc1cc2ccccc2nc1Cl |  | replicon |  | <0.5 µM
Cc1cc(C(=O)Nc2ccc(-c3cc(N(C(=O)C4CCC(C)CC4)C(C)C)c(C(=O)O)s3)cc2)n[nH]1 | 1b | replicon |  | <0.5 µM
CC1(C)CC(=O)C2=C(C1)Nc1c(O)cccc1NC2c1ccc(OCc2ccc(F)cc2)cc1F | 1b | luciferase / reporter gene / replicon |  | 8.33 µM
Cc1cncc(C(=O)Nc2ccc(-c3cc(N(C(=O)C4CCC(C)CC4)C(C)C)c(C(=O)O)s3)cc2)c1 | 1a | replicon |  | >0.5 µM
Fc1ccc(-c2ccc3nc(NCc4ccc(-n5cncn5)cc4)nc(NCC(F)(F)F)c3n2)cc1 |  | replicon |  | <0.1 µM
CN1CCN(c2cc3c(cc2F)c(=O)c(-c2noc(Cc4ccc(F)cc4)n2)cn3Cc2ccc(F)cc2F)CC1 | 1b | replicon |  | <10 µM
CC(=O)N1c2cccc(O)c2NC2=C(C(=O)CC(C)(C)C2)C1c1ccc(-c2ccccc2)cc1 | 1b | luciferase / reporter gene / replicon |  | 19.31 µM
CCOc1nc(N)nc2c1ncn2[C@@H]1O[C@@H]2COP(=O)(OC(C)C)O[C@H]2[C@@]1(C)F | 2a | replicon | 137 d | 3.58 µM
CC(C)N(C(=O)c1ccc(Cl)cc1F)c1cc(-c2ccc(-c3cn4ccccc4n3)cc2)sc1C(=O)O | 1b | luciferase / replicon |  | 0.1–0.5 µM
CCCCCOc1ccc(N(C(N)=O)c2nc(-c3ccc(C(=O)N(C)C)nc3)cs2)cc1C(F)(F)F |  |  |  | <1 µM
NC(=O)COc1ccc2c(c1)S(=O)(=O)N=C(c1c(O)c3cc(F)ccc3n(CCC3CC3)c1=O)N2 | 1a 33783 | replicon |  | 0.7 µM
CN1CCN(c2cc3c(cc2F)c(=O)c(-c2noc(Cc4ccccc4)n2)cn3Cc2c(F)cccc2Cl)CC1 | 1b | replicon |  | <10 µM
CN(C)c1nc(NCc2ccc(F)cc2)nc2ccc(-c3ccc(F)cc3)nc12 |  | replicon |  | 0.25–2 µM
CS(=O)(=O)NC(=O)c1c(-c2ccc[nH]c2=O)c2c3sccc3ccc2n1Cc1cc(F)ccc1F |  | replicon |  | >1.5 µM
CC(=O)N1c2cccc(O)c2NC2=C(C(=O)CC(C)(C)C2)C1c1ccccn1 | 1b | luciferase / reporter gene / replicon |  | >100 µM
COC(=O)CNc1cc2c(cc1F)c(=O)c(-c1noc(Cc3ccccc3)n1)cn2Cc1ccc(C(F)(F)F)cc1F | 1b | replicon |  | <10 µM
CC(=O)c1ccc(-c2cc(N(C(=O)c3ccc(Cl)cc3Cl)C(C)C)c(C(=O)O)s2)s1 | 1a | luciferase / replicon |  | >5 µM
Fc1ccc(-c2ccc3nc(NCc4cncs4)nc(NCC(F)(F)F)c3n2)cc1 |  | replicon |  | <0.1 µM
CCN(C(=O)C1CCC(C)CC1)c1cc(-c2ccc(NC(=O)c3cn(C)cn3)cc2)sc1C(=O)O | 1b | replicon |  | <0.5 µM
CC/C=N/N(c1ccc(OCCCCCCCC)cc1)c1nc(-c2cccnc2)cs1 |  |  |  | <1 µM
CN(C)c1cc2c(cc1F)c(=O)c(-c1noc(Cc3ccccc3)n1)cn2Cc1ccc(C(F)(F)F)cc1 | 1b | replicon |  | >10 µM
CC1(C)CC(=O)C2=C(C1)Nc1c(O)cccc1N(C(=O)c1ccccn1)C2c1ccc(OCc2ccccc2)cc1Cl | 1b | luciferase / reporter gene / replicon |  | 0.95 µM
O=C(NS(=O)(=O)C1CC1)c1c(-c2ccc[nH]c2=O)c2c3occc3c(F)cc2n1Cc1cc2ccccc2nc1Cl |  | replicon |  | <0.5 µM
CC(C)C(=O)N1c2cccc(O)c2NC2=C(C(=O)CC(C)(C)C2)C1c1ccc(O[C@@H](C)c2ccccc2)cc1F | 1b | luciferase / reporter gene / replicon |  | >32 µM
O=C(O)c1c(-c2ccc[nH]c2=O)c2c3ccoc3ccc2n1Cc1ccccc1F |  | replicon |  | >1.5 µM
CCCCCCCCc1ccc(N(C(=O)C(=O)OC)c2nc(-c3cccnc3)cs2)cc1 |  |  |  | <1 µM
O=C(NS(=O)(=O)C1CC1)c1ccc(F)c(Cn2c(C(=O)NS(=O)(=O)C3CC3)c(-c3ccc[nH]c3=O)c3c4occc4c(F)cc32)c1 |  | replicon |  | 0.5–1.5 µM
CC(C)N(C(=O)c1ccc(Cl)cc1Cl)c1cc(-c2ccccc2)sc1C(=O)O | 1a | luciferase / replicon |  | 1–5 µM

Repeating the first 6 entries:

SMILES | strain or isolate | method | setting | value
CC(C)N(C(=O)c1ccc(Cl)cc1F)c1cc(-c2ccccc2)sc1C(=O)O | 1a | replicon / ELISA |  | 1–5 µM
O=c1c(-c2noc(Cc3ccccc3)n2)cn(Cc2ccc(C(F)(F)F)cc2)c2cc(NCCOCCO)c(F)cc12 | 1b | replicon |  | <2 µM
NS(=O)(=O)c1ccc(CNc2nc(NCC(F)(F)F)c3nc(-c4ccc(F)c(S(=O)(=O)NC5CCNCC5)c4)ccc3n2)cc1 |  | replicon |  | <0.1 µM
CC1CCC(C(=O)N(c2cc(-c3ccc(NC(=O)c4ccncn4)cc3)sc2C(=O)O)C(C)C)CC1 | 1a | replicon |  | <0.5 µM
CS(=O)(=O)N(CCO)c1cccc(-c2ccc3nc(NCc4ccc(S(N)(=O)=O)cc4)nc(NCC(F)F)c3n2)c1 |  | replicon |  | <0.1 µM
CCCCCCCCOc1ccc(N(C(=O)CN(C)C)c2nc(-c3cccnc3)cs2)cc1C(F)(F)F |  |  |  | <1 µM